# Data from publication PMC7942396, “Drug Repurposing Screen for Compounds Inhibiting the Cytopathic Effect of SARS-CoV-2” (Frontiers in Pharmacology, 2021).
# System: Vero E6 cells
# Experiment: not given
# Conditions: read-out: Cytotox CC50; cytotoxicity counter-assay, Vero E6 cells without virus
row,Compound,CC50 [µM]
1,10058-F4,12.6
2,CCCCCCCCCCCCCCCc1cccc(O)c1C(=O)O [Anacardic Acid],14.1
3,CC(C)c1onc(-c2c(Cl)cccc2Cl)c1COc1ccc(/C=C/c2cccc(C(=O)O)c2)c(Cl)c1 [GW-4064X],14.1
4,CCCCCCCc1ccc(CCc2cccc(O)c2C(=O)O)cc1 [MG-149],14.1
5,Cn1cc(-c2ccncc2)c(-c2ccc(OCc3ccc4ccccc4n3)cc2)n1 [MP-10],14.1
6,COc1ccc(C(C)(C)C)cc1CN[C@H]1C2CCN(CC2)[C@H]1C(c1ccccc1)c1ccccc1 [Maropitant],14.1
7,CCC(C)CNCC(=O)N1CCc2sccc2C1COc1cccc(C)c1 (stereo not drawn) [RU-SKI 43],14.1
8,HBX 19818,12.6

# System: not listed separately
# Experiment: in vitro
# Conditions: African green monkey
Compound,CC50 [µM],CC50 at 72 h [µM]
c1ccc(-c2ccc(C(c3ccccc3)n3ccnc3)cc2)cc1 (stereo not drawn) [Bifonazole],14.1,–
CCCCCCCCn1cc(CC(N)=O)c2cc(-c3cccc(C)c3)ccc21 [Cysmethynil],–,14.1
CN(C)[C@@H](CCOc1cccc2ccccc12)c1ccccc1 [Dapoxetine],–,14.1
CCCCN(CCCC)CCC(O)c1cc2c(Cl)cc(Cl)cc2c2cc(C(F)(F)F)ccc12 (stereo not drawn) [Halofantrine],14.1,–
